# Test results: PubChem BioAssay AID977628 (Broad Institute, 2014)
# The entries are a selection whose mix differs from that of the whole data set. Results filed as inconclusive are left out. Active and inactive are the calls of the source.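 The calls were made as follows: active = compound lowering the normal-ribosome reporter at least twice as much as the humanized-ribosome reporter, growth loss under a set limit; inconclusive = no clear call, values can overlap the other calls; inactive = the rest.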
# Test: E. coli growth inhibition, wild-type GFP versus h24 humanized RFP strain, dose response, h24 mutant RFP vs wild-type GFP, cherry-pick (AID 977628);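 also: wild-type GFP and h24 humanized RFP strains co-cultured 1 to 1 per well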
# Details: E. coli WT GFP strain growth, fluorescence, 24 h; at 50 µM (top of the series)
row,SMILES,"activity change, negative = inhibition"
1,O=[N+]([O-])c1cc([N+](=O)[O-])c(Nc2nnnn2CCO)c([N+](=O)[O-])c1,inactive: -11.8
